From article PMC10749193 (Frontiers in Immunology, 2023)

Molecular target: SARS-CoV-2 spike (D614G)-ectodomain (SARS-CoV-2, Wuhan background with D614G, D614G)
Experiment: SPR

B1: anti-S2 monoclonal antibody 4A5 (antibody, V domains shown)
VH: QVKLEQSGPGILQPSQTLSLTCSFSGFSLSTSGMGVSWIRQSSGKGLEWLTHIYWDDDKRYNPSLKSRLTISKDTSRNQVFLKITSVDTADTATYYCARRRMITGLYYAMDYWGQGTSVTVSS
VL: DIVMTQSTLSLPVSFGDQVSISCRSSQSLANSYGITYLSWYLHKPGQSPQLLIYGISNRFSGVPDRFSGSGSGTDFTLKISTIKPEDLGMYYCLQGTHQPWTFGGGTKLEIK
- Kd: 2.11 nM
